{
  "source": "paper PMC9734910",
  "about": "(2022)",
  "binders": {"B1": {"name": "soluble Bat37ACE2 ectodomain (Pipistrellus pipistrellus ACE2) (domain or fragment)", "chain": "TTEEEARDFLDKFNSEAENLSHESALASWDYNTNITDENAQKMNEADSKWSDFYKEQSKRAQAFPLQEIQNLTIKLQLQILQQNGSSVLTAEKSKRLSTILTTMSTIYSTGKVCNPNNPQQCFTLSGLEDIMEKSKDYHQRLWVWEGWRSEVGKQLRPLYEEYVVLKNEMARGNNYEDYGDYWRGDYETEGEDGYNYSRNQLMEDVDRIFLEIKPLYEQLHAYVRAKLMNAYPSRISPTGCLPAHLLGDMWGRFWTNLYNLTVPFEQKQNIDVTETMKKQSWDAEKIFKEAEKFYLSVGLYSMTQGFWNNSMLTEPSDGRQVVCHPTAWDLGEDDFRIKMCTKVTMDDFLTAHHEMGHIQYDMAYAKQPYLLRNGANEGFHEAVGEVMSLSVATPKHLKGMGLLPSDFSEDNETEINFLLKQALNIVGTLPFTYMLEKWRWMVFEGKIPKEQWMEKWWEMKREIVGVVEPLPHDETYCDPASLFHVANDYSFIRYFTRTILEFQFQEALCKIAKHEGPLHKCDISNSTEAGKKLKDMLELGKSKPWTYALNQIARTKEMDAKPLLNYFEPLFSWLKKQNGNSVGWSADWSPYSEQSLKVRISLISALGEKAYEWNDNEMYLFRSSVAYAMRVYFSKMNKTIPFTAEDVRVSDEKKRVSFKFFVTSPTNISDIIPRSEVEDAIRMSRSRINDA"}},
  "key": {"[1]": {"molecular_target": "PDF-2180 RBD–hFc (domain B fused to human IgG Fc domain) (PDF-2180 (bat coronavirus, infects …))"}, "[2]": {"molecular_target": "NeoCoV RBD–hFc (domain B fused to human IgG Fc domain) (NeoCoV (bat coronavirus, found in …))"}},
  "data": [
    {"binder": "B1", "values": [
      {"measurement": "koff", "setting": "[1]", "value": 0.000141, "unit": "s⁻¹"},
      {"measurement": "koff", "setting": "[2]", "value": "8.72e-05", "unit": "s⁻¹"}
    ]}
  ]
}
